Measured values from several laboratories, pooled; numbers as filed in NIAID ChemDB.

Shared fields: tests in culture; species: Hepatitis B virus; endpoint: EC50

ECn: concentration that inhibits the pathogen or its effect by n%. Two numbers with a dash give a range or band. Neighbouring rows are from separate reports. Blank or dashed fields: not listed here.

compound,strain,cells,method,result
Cc1oncc1S(=O)(=O)Nc1ccc2c(C(=O)Nc3ccc(F)c(Cl)c3)n(C)nc2c1,-,HepAD38,PCR,>1000 µM
OCc1ccc(-c2ccc3ncnc(Nc4ccc(N5CCOCC5)cc4)c3c2)o1,-,HUH 9B,replicon,<1 µM
O=C(NCc1ccccc1)c1c2n(c(=O)n1-c1ccc(-n3ccnc3)cc1)CCN(C(=O)c1ccc(Br)c(Cl)c1)C2,-,HepG2.117,PCR,0.5–5 µM
Cn1nc2cc(NS(=O)(=O)c3cnn(-c4ncccc4Cl)c3)ccc2c1C(=O)Nc1ccc(F)c(Cl)c1,-,HepAD38,PCR,<100 µM
COCCC(C)Oc1cc2c(cc1Cl)-c1c(cc(C(=O)O)c(=O)n1C1CC1)C(C)S2(=O)=O,-,Primary human hepatocytes,antigen / visual reading / absorbance,0.1–0.5 µM
CCOC(=O)Cn1cc(S(=O)(=O)Nc2ccc3c(C(=O)Nc4ccc(F)c(Cl)c4)n(C)nc3c2)cn1,-,HepAD38,PCR,>1000 µM
COCCCOc1cc2c(cc1C(C)C)-c1c(cc(C(=O)O)c(=O)n1C1CC1)CS2(=O)=O,-,Primary human hepatocytes,antigen / visual reading / absorbance,>0.5 µM
O=C(NCc1ccccc1-n1cncn1)c1c2n(c(=O)n1-c1ccc(OC3CC3)cc1)CCN(C(=O)c1ccc(Br)c(Cl)c1)C2,-,HepG2.117,PCR,<0.1 µM
Cc1n[nH]nc1-c1cc(-n2c(=O)c3c(n4ncc(Cc5ccccc5)c24)CN(C(=O)c2ccc(Br)c(C(F)(F)F)c2)[C@@H](C)C3)nn1C,-,HepG2.117,luminescence,0.05–0.5 µM
COc1ccc(CNC(=O)c2ccc3ncnc(Nc4ccc(N5CCOCC5)cc4)c3c2)cc1,-,HUH 9B,replicon,1–5 µM
CCOCCOc1cc2c(cc1Cl)-c1c(cc(C(=O)O)c(=O)n1C1CC1)C(C)S2(=O)=O,-,Primary human hepatocytes,antigen / visual reading / absorbance,0.1–0.5 µM
COc1cc(Cl)c(-n2c(C(=O)NCc3ccccc3)c3n(c2=O)CCN(C(=O)c2ccc(Cl)c(Cl)c2)C3)c(Cl)c1,-,HepG2.117,PCR,>5 µM
CC(C)Cc1cnn2c3c(c(=O)n(-c4ccc(-c5nncn5C)cc4)c12)C[C@H](C)N(C(=O)c1ccc(Br)c(C(F)(F)F)c1)C3,-,HepG2.117,luminescence,0.05–0.5 µM
COc1ccc(-n2c(C(=O)N[C@@H](c3ccccc3)C(F)(F)F)c3n(c2=O)CCN(C(=O)c2ccc(Br)c(Cl)c2)C3)cc1,-,HepG2.117,PCR,0.1–0.5 µM
CC(C)Cc1cnn2c3c(c(=O)n(-c4ccc5c(c4)ncn5C)c12)C[C@@H](C)N(C(=O)c1ccc(Br)c(C(F)(F)F)c1)C3,-,HepG2.117,luminescence,≤0.05 µM
CC(C)CCN(c1ccc(N2CCOCC2)cc1)c1ncnc2ccc(I)cc12,-,HUH 9B,replicon,1–5 µM
Cc1ncnn1-c1ccc(-n2c(=O)c3c(n4ncc(Cc5ccccc5)c24)CN(C(=O)c2ccc(Br)c(C(F)(F)F)c2)CC3)cc1,-,HepG2.117,luminescence,≤0.05 µM
COc1ccc(-n2c(C(=O)N[C@H]3CCc4cc(OC)ccc43)c3n(c2=O)CCN(C(=O)c2ccc(Br)c(Cl)c2)C3)cc1,-,HepG2.117,PCR,0.1–0.5 µM
CS(=O)(=O)CCNCc1ccc(-c2ccc3ncnc(Nc4ccc(N5CCOCC5)cc4)c3c2)o1,-,HUH 9B,replicon,<1 µM
Cn1nc2cc(NS(=O)(=O)c3cnn(-c4ccncn4)c3)ccc2c1C(=O)Nc1ccc(F)c(Cl)c1,-,HepAD38,PCR,<100 µM
O=Cc1ccc(C2(Nc3ccc(N4CCOCC4)cc3)N=CNc3ccccc32)o1,-,HUH 9B,replicon,<1 µM
CC[C@@H]1Cc2c(n3ncc(Cc4ccccc4)c3n(-c3ccc4c(NC)n[nH]c4c3)c2=O)CN1C(=O)c1ccc(Br)c(C(F)(F)F)c1,-,HepG2.117,luminescence,≤0.05 µM
COc1cc(Nc2ncnc3ccc(I)cc23)ccc1N1CCOCC1,-,HUH 9B,replicon,1–5 µM
CC(C)(NC(=O)c1c2n(c(=O)n1-c1ccccc1)CCN(C(=O)c1ccc(Br)c(Cl)c1)C2)c1ccccc1,-,HepG2.117,PCR,>5 µM
COCCCOc1cc2c(cc1Cl)-c1c(cc(C(=O)O)c(=O)n1C1CCC1)C(C)S2(=O)=O,-,Primary human hepatocytes,antigen / visual reading / absorbance,0.1–0.5 µM
O=S1(=O)CCN(Cc2ccc(-c3ccc4ncnc(Nc5ccc(N6CCOCC6)cc5)c4c3)o2)CC1,-,HUH 9B,replicon,1–5 µM
C=C1[C@H](CO)[C@@H](O)C[C@@H]1n1cnc2c(=O)[nH]c(N)nc21,Genotype D,PHH,fluorescence,<0.0015 µM
C[C@H]1Cc2c(n3ncc(Cc4ccccc4)c3n(-c3ccc(-n4nnnc4C(F)(F)F)cc3)c2=O)CN1C(=O)c1ccc(Br)c(C(F)(F)F)c1,-,HepG2.117,luminescence,>5 µM
C[C@H](NC(=O)c1c2n(c(=O)n1-c1ccc(OC3CC3)cc1)CCN(C(=O)c1ccc(Br)c(Cl)c1)C2)c1ccc(C#N)cc1F,-,HepG2.117,PCR,0.1–0.5 µM
CNC(=O)c1cc(-n2c(=O)c3c(n4ncc(CC(C)C)c24)CN(C(=O)c2ccc(Br)c(C(F)(F)F)c2)[C@H](C)C3)nn1C,-,HepG2.117,luminescence,≤0.05 µM
CC1c2cc(C(=O)O)c(=O)n(C3CC3)c2-c2cc(Cl)c(OC3CCCC3)cc2S1(=O)=O,-,Primary human hepatocytes,antigen / visual reading / absorbance,0.05–0.1 µM
Cn1nc2cc(NS(=O)(=O)c3cnn(CC4CN(S(C)(=O)=O)C4)c3)ccc2c1C(=O)Nc1ccc(F)c(Cl)c1,-,HepAD38,PCR,>1000 µM
COCCCOc1cc2c(cc1Cl)-c1c(cc(C(=O)O)c(=O)n1C1CC1)C(C(C)(C)C)S2(=O)=O,-,Primary human hepatocytes,antigen / visual reading / absorbance,>0.5 µM
CCC(O)CNS(=O)(=O)CNc1ccc2c(C(=O)Nc3ccc(F)c(Cl)c3)n(C)nc2c1,-,HepAD38,PCR,100–1000 µM
CC(C)Oc1ccc(-n2c(C(=O)NCc3ccc(=O)n(C)c3)c3n(c2=O)CCN(C(=O)c2ccc(Br)c(Cl)c2)C3)cc1,-,HepG2.117,PCR,>5 µM
COCCn1cc(COc2cc3c(cc2Cl)-c2c(cc(C(=O)O)c(=O)n2C2CC2)CS3(=O)=O)cn1,-,Primary human hepatocytes,antigen / visual reading / absorbance,0.05–0.1 µM

Repeating the first 5 entries:

| compound | strain | cells | method | result |
|---|---|---|---|---|
| Cc1oncc1S(=O)(=O)Nc1ccc2c(C(=O)Nc3ccc(F)c(Cl)c3)n(C)nc2c1 | - | HepAD38 | PCR | >1000 µM |
| OCc1ccc(-c2ccc3ncnc(Nc4ccc(N5CCOCC5)cc4)c3c2)o1 | - | HUH 9B | replicon | <1 µM |
| O=C(NCc1ccccc1)c1c2n(c(=O)n1-c1ccc(-n3ccnc3)cc1)CCN(C(=O)c1ccc(Br)c(Cl)c1)C2 | - | HepG2.117 | PCR | 0.5–5 µM |
| Cn1nc2cc(NS(=O)(=O)c3cnn(-c4ncccc4Cl)c3)ccc2c1C(=O)Nc1ccc(F)c(Cl)c1 | - | HepAD38 | PCR | <100 µM |
| COCCC(C)Oc1cc2c(cc1Cl)-c1c(cc(C(=O)O)c(=O)n1C1CC1)C(C)S2(=O)=O | - | Primary human hepatocytes | antigen / visual reading / absorbance | 0.1–0.5 µM |